For one sequence, inhibition results are on record in ChEMBL document CHEMBL4303101, “Identification of inhibitors of SARS-CoV-2 in-vitro cellular toxicity in human (Caco-2) cells using a large scale drug repurposing collection” (2020).

Values joined by “and” are separate entries in the source; they are usually repeats but may differ in a detail not shown here. Identical values can stand only once.

The inhibition is how much of the control response was suppressed. Read a low inhibition as a response near the control.

In this assay the test system is SARS-CoV-2. The note with it: Homo sapiens; Caco-2; 10 uM.

As to COLISTIN SULFATE, the inhibition is 13.7% and 5.96%.
